Results of unrelated studies side by side (data: NIAID ChemDB).

Common to all: enzyme or target tests; organism: HIV-1; target: Reverse transcriptase; method: nucleotide incorporation / radiometric; measure: IC50

An empty or dashed field is not shown.

structure | changes | strain | result
CC(C)c1ccccc1-n1nnnc1SCC(=O)Nc1ccccc1[N+](=O)[O-] |  |  | <2 µM
CCN1c2ncc(O)cc2C(=O)N(C)c2ccc(Cl)nc21 |  | WT | >1 µM
Cc1cc(C)c(-n2nnnc2SCC(=O)Nc2ccc(S(N)(=O)=O)cc2Cl)c(C)c1 |  |  | <2 µM
CCC1(c2cccc(COc3ccccc3)c2)Oc2ccccc2-n2cccc2C1=O | RT-K103N |  | 4.9 µM
Cc1cc(C)c(-n2nnnc2SCC(=O)Nc2ccccc2Br)c(C)c1 |  |  | <2 µM
CCC1(c2ccc(COc3ccccc3)cc2)Oc2ccccc2-n2cccc2C1=O | RT-V106A |  | 0.8 µM
Cc1cn([C@H]2C=C[C@@H](COP(=O)(O)OP(=O)(O)OP(=O)(O)O)O2)c(=O)[nH]c1=O | RT-I135A |  | 0.16 µM
CCN1c2ncc(Cc3cccc(O)c3)cc2C(=O)N(C)c2ccc(Cl)nc21 | RT-Y181C |  | <1 µM
O=C(CSc1nnnn1-c1ccccc1Cl)Nc1ccccc1Cl |  |  | <2 µM
CCN1c2ncc(CS(=O)c3ccccc3)cc2C(=O)N(C)c2ccc(Cl)nc21 | RT-Y181C |  | <1 µM
CCC1(c2cccc(Cl)c2)Cc2ccccc2-n2cccc2C1=O | RT-Y181I |  | >10 µM
CCN1c2ncc(CCc3cccc(F)c3)cc2C(=O)N(C)c2cccnc21 | RT-Y181C |  | <1 µM
CCC1(c2ccc(I)cc2)Oc2ccccc2-n2cccc2C1=O | RT-K103N |  | >100 µM
CCN1c2ncc(C=O)cc2C(=O)N(C)c2ccc(F)nc21 | RT-Y181C |  | >1 µM
CCC1(c2ccc(CCc3ccccc3)cc2)Oc2ccccc2-n2cccc2C1=O | RT-V106A |  | >10 µM
c1ccc(CSc2nnnn2-c2cccc3ccccc23)nc1 |  |  | <2 µM
CCN1c2ncc(COc3ccccc3)cc2C(=O)N(C)c2ccc(Cl)nc21 | RT-Y181C |  | <1 µM
CCC1(c2ccc(Cn3ccsc3=N)cc2)Oc2ccccc2-n2cccc2C1=O |  | WT | 1.6 µM

Repeating the final 2 entries:

| structure | changes | strain | result |
|---|---|---|---|
| CCN1c2ncc(COc3ccccc3)cc2C(=O)N(C)c2ccc(Cl)nc21 | RT-Y181C |  | <1 µM |
| CCC1(c2ccc(Cn3ccsc3=N)cc2)Oc2ccccc2-n2cccc2C1=O |  | WT | 1.6 µM |

ICn: concentration for n% inhibition. Conditions beyond the fields shown may differ between rows.